According to patent publication US12691107B2, “Methods for the treatment and prevention of lung infections caused by gram-positive bacteria, fungus, or virus by administration of tafenoquine” (priority 2020, dated 2026):

System: SARS-CoV-2
Test: Calculation of RLTEC and MPEC50 for tafenoquine against SARS-CoV-2
Description: Pneumocystis was used as a model organism against which to set minimum requirements for the maximum acceptable in vitro EC50 of tafenoquine against SARS-CoV-2 in vitro. Pneumocystis was selected because it is the only lung pathogen for which both in vitro and in vivo data are available for tafenoquine. The maximum lung tissue concentration [LTsscmaxrats] at the minimum dose of tafenoquine necessary to inhibit the growth of Pneumocystis in vivo in a treatment modality was calculated using relevant data derived from the scientific literature [see Table 7]. The ratio of that concentration to the EC50 against Pneumocystis in vitro RLTEC was determined [see Table 7]. The plasma steady state Cmax [Psscmaxhumans] at the approved prophylactic dose is known from the ARAKODA product insert [60 Degrees Pharmaceuticals. 2018. Product Insert for ARAKODA.]. The maximum steady state lung tissue concentration [LTsscmaxhumans] of that dose was determined using relevant metrics from the literature. The maximum permissible EC50 (“MPEC50”) was then defined by dividing the LTsscmaxhumans by the RLTEC [Table 7]. […]
[Note: These calculated values provided in this example were recalculated and updated in the present application and therefore may differ from what is presented in some cross-referenced U.S. Provisional Applications.]

COc1cc(C)c2c(Oc3cccc(C(F)(F)F)c3)c(OC)cc(NC(C)CCCN)c2n1 (stereo not shown) [Tafenoquine, N(4)-[2,6-Dimethoxy-4-methyl-5-[3-(trifluoromethyl)phenoxy]quinolin-8-yl]pentane-1,4-diamine]
RLTEC (ratio of lung tissue concentration to EC50 against Pneumocystis in vitro): 23 and 23.3

“And” between values parts separate entries of the source, which are not always exact repeats. Equal entries are not always repeated.
